Only a part is listed here, and it is no random draw. The source made the active and inactive calls. No rule for the calls is given here.
The molecules below were run against Chaperone protein DnaK (Escherichia coli (strain K12)) (UniProt P0A6Y8) (assay: blockers of bacterial DnaK function – luminescence, E. coli K12, primary screen (AID 547;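 also: tested at 10 µM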)). Details: DnaK chaperone assay, luminescence read-out; stronger effect = lower value.

Compound | luminescence
N#[O+].[C-]#N.[C-]#N.[C-]#N.[C-]#N.[C-]#N.[Fe+2].[Na+].[Na+] | inactive: 2.7e+06 cps

Source: PubChem BioAssay AID547 (Emory University Molecular Libraries Screening Center, 2006)
